According to paper PMC9101188, “Human α-Defensin-6 Neutralizes Clostridioides difficile Toxins TcdA and TcdB by Direct Binding” (International Journal of Molecular Sciences, 2022):

Tested on: Vero cells
Conditions: α-def-6 6 µM, 24 h, 48 h and 72 h, 37 °C; absorbance 490 nm; three biological replicates (n = 3)

Question: Which “effect on viability of cultured Vero cells” value does the source give for CC[C@H](C)[C@@H]1NC(=O)CNC(=O)[C@H](CCSC)NC(=O)[C@H](C(C)C)NC(=O)[C@H]([C@@H](C)O)NC(=O)[C@@H]2CSSC[C@@H]3NC(=O)[C@H](Cc4c[nH]cn4)NC(=O)[C@@H](NC(=O)[C@@H](NC(=O)[C@H](Cc4ccccc4)NC(=O)[C@H](C)N)[C@@H](C)O)CSSC[C@@H](C(=O)N[C@@H](CC(C)C)C(=O)O)NC(=O)[C@H](CSSC[C@H](NC(=O)[C@H](CO)NC(=O)[C@H](CCCNC(=N)N)NC(=O)[C@H](CCCNC(=N)N)NC3=O)C(=O)N[C@@H](Cc3ccc(O)cc3)C(=O)N[C@@H](CO)C(=O)N[C@@H]([C@@H](C)O)C(=O)N[C@@H](CCC(=O)O)C(=O)N[C@@H](Cc3ccc(O)cc3)C(=O)N[C@@H](CO)C(=O)N[C@@H](Cc3ccc(O)cc3)C(=O)NCC(=O)N[C@@H]([C@@H](C)O)C(=O)N2)NC(=O)[C@H](Cc2ccccc2)NC(=O)[C@H](CCCNC(=N)N)NC(=O)[C@H](Cc2c[nH]cn2)NC(=O)[C@H](CC(N)=O)NC1=O [α-def-6] here?
Answer: no effect on viability of cultured Vero cells
